Anti-infective test results gathered from many reports (values: NIAID ChemDB through PubChem).

Shared fields: tests in culture; organism: Punta Toro virus; read by: cytopathic effect; read-out: EC50

Lines come from different laboratories, so protocols vary. ECn is the concentration giving n% inhibition of infection, replication or growth. Blank or dashed fields: not listed here.

structure | cell line | strain or isolate | result
Cc1cn([C@@H]2OC[C@H](CO)[C@H]2O)c(=O)[nH]c1=O | VERO | - | >80 µg/mL
CCC(Sc1ncnc2c1cnn2COCCO)C(N)=O | VERO | - | >400 µg/mL
CC1(C)[C@@H](CO)CC[C@@]1(C)Cn1cc(I)c(=O)[nH]c1=O | VERO | - | >400 µg/mL
CC1(CO)CCC(Cn2nnc3c(=O)[nH]cnc32)C1(C)C | VERO | - | >400 µg/mL
CC1(C)[C@@H](CCO)C[C@H]1n1cnc2c(=O)[nH]c(N)nc21 | VERO | - | >400 µg/mL
CC1(CO)CCC(Cn2nnc3c(N)ncnc32)C1(C)C | VERO | - | >40 µg/mL
CC1(C)[C@@H](CO)CC[C@@]1(C)Cn1cc(Br)c(=O)[nH]c1=O | VERO | - | >400 µg/mL
CC(=O)OC[C@H]1O[C@@H](n2ncc(=S)[nH]c2=O)C(OC(C)=O)C1OC(C)=O | VERO | Adames | 17.4 µg/mL
N#CC1=CSc2nnc(-c3cn(-c4ccccc4)nc3-c3ccccc3)n2N=C1N | VERO | - | >16 µg/mL
[N-]=[N+]=NC(CBr)c1cc([C@H]2C[C@H](O)[C@@H](CO)O2)c(F)cc1F | VERO | - | >16 µg/mL
S=c1[nH]n2c(-c3cn(-c4ccccc4)nc3-c3ccccc3)nnc2s1 | VERO | - | >80 µg/mL
CC1(CO)CCC(Cn2nnc3c(N)nc(N)nc32)C1(C)C | VERO | - | >200 µg/mL
COc1cc(Cc2cnc(-n3c(C)nc4ccc(Br)cc4c3=O)nc2N)cc(OC)c1OC | E6SM | - | >80 µg/mL
O=c1cnn([C@@H]2O[C@H](CO)[C@@H](O)[C@H]2O)c(=S)[nH]1 | VERO | Adames | 1.07 µg/mL
OC[C@H]1O[C@H](c2cc(Cl)c(F)cc2F)C[C@@H]1O | VERO | - | >80 µg/mL
Nc1nc(-n2c(-c3ccccc3)nc3ccc(Br)cc3c2=O)nnc1-c1cccc(Cl)c1Cl | E6SM | - | >16 µg/mL
O=c1cnn([C@@H]2O[C@H](CO)[C@@H](O)[C@H]2O)c(=O)[nH]1 | VERO | Adames | 0.68 µg/mL
CC1(C)[C@@H](CCO)C[C@H]1n1nnc2c(=O)[nH]c(N)nc21 | VERO | - | >400 µg/mL
CCCCN=C(N)c1ncn([C@@H]2O[C@H](CO)[C@@H](O)[C@H]2O)n1 | VERO | Adames | 41 µg/mL
O=c1[nH]n2c(-c3cn(-c4ccccc4)nc3-c3ccccc3)nnc2s1 | VERO | - | >80 µg/mL
CCC(Sc1ncnc2c1cnn2CCCCO)C(N)=O | VERO | - | >400 µg/mL
COC(=N)c1ncn([C@@H]2O[C@H](CO)[C@@H](O)[C@H]2O)n1 | VERO | Adames | 201 µg/mL
CC(Sc1ncnc2c1cnn2CCCCO)C(N)=O | VERO | - | >400 µg/mL
S=c1[nH]nc(-c2cn(-c3ccccc3)nc2-c2ccccc2)o1 | VERO | - | >16 µg/mL
CC1(CO)CCC(Cn2nnc3c(Cl)nc(N)nc32)C1(C)C | VERO | - | >100 µg/mL
CCOC(=O)CSc1nnc(-c2cn(-c3ccccc3)nc2-c2ccccc2)n1N | VERO | - | >16 µg/mL
Nc1nc2c(ncn2[C@H]2OC[C@@H](CO)C2O)c(=O)[nH]1 | VERO | - | >16 µg/mL
CC(=O)OC[C@H]1O[C@@H](n2ncc(=S)[nH]c2=S)C(OC(C)=O)C1OC(C)=O | VERO | Adames | 69.1 µg/mL
CC1(CO)CCC(Cn2ccc(=O)[nH]c2=O)C1(C)C | VERO | - | >400 µg/mL
CCON=C[C@H]1O[C@@H](n2cnc3c(N)ncnc32)[C@H](O)[C@@H]1O | VERO | - | >100 µg/mL
CC(C)CS[C@@H]1C=C[C@H](n2cnc3c(N)ncnc32)C1 | HeLa | - | >3.2 µg/mL
CC1(C)[C@@H](CCO)C[C@H]1n1nnc2c(N)nc(N)nc21 | VERO | - | >400 µg/mL
Nc1ncnc2c1ncn2[C@@H]1O[C@H](C=NOCc2ccccc2)[C@@H](O)[C@H]1O | VERO | - | >100 µg/mL
Nc1ccn([C@@H]2OC[C@H](CO)[C@H]2O)c(=O)n1 | VERO | - | >80 µg/mL
CC1(CO)CCC(Cn2cnc3c(N)nc(N)nc32)C1(C)C | VERO | - | >40 µg/mL
NC1=Nn2c(nnc2-c2cn(-c3ccccc3)nc2-c2ccccc2)SC1 | VERO | - | >16 µg/mL
Cc1nc2ccc(Br)cc2c(=O)n1-c1nnc(-c2cccc(Cl)c2Cl)c(N)n1 | E6SM | - | >16 µg/mL
CC1(C)[C@@H](CO)CC[C@@]1(C)Cn1cnc2c(Cl)ncnc21 | VERO | - | >400 µg/mL

A second listing of 4 rows from above:

structure | cell line | strain or isolate | result
Cc1nc2ccc(Br)cc2c(=O)n1-c1nnc(-c2cccc(Cl)c2Cl)c(N)n1 | E6SM | - | >16 µg/mL
N#CC1=CSc2nnc(-c3cn(-c4ccccc4)nc3-c3ccccc3)n2N=C1N | VERO | - | >16 µg/mL
CC1(C)[C@@H](CO)CC[C@@]1(C)Cn1cnc2c(Cl)ncnc21 | VERO | - | >400 µg/mL
CC1(C)[C@@H](CCO)C[C@H]1n1nnc2c(N)nc(N)nc21 | VERO | - | >400 µg/mL